Measured values from several laboratories, pooled; numbers as filed in NIAID ChemDB.

Common to all: whole-cell or culture tests; organism: Candida albicans

MIC50, MIC90 and the like: level of inhibition, or share of isolates inhibited. Neighbouring rows are from separate reports. Blank or dashed fields: not listed here. Two numbers with a dash give a range or band.

smiles	measure	method	strain	result
Cc1ncc([N+](=O)[O-])n1CCn1c(-c2ccccc2)csc1=Nc1ccc(Cl)cc1	MIC			500 µg/mL
C=C(CC[C@@H](C)C1CCC2C3=C(CC[C@@]21C)[C@@]1(C)CC[C@H](O)CC1CC3=O)C(C)C	MIC	agar		>100 µM
CS[C@@H](n1cncn1)[C@@](O)(Cn1cncn1)c1ccc(Cl)cc1Cl	MIC			>100 µg/mL
C=CC(C)(C)c1[nH]c2ccccc2c1/C=c1\[nH]c(=O)c2n(c1=O)CCC=2C1=c2c(=O)[nH]/c(=C\c3c(C(C)(C)C=C)[nH]c4ccccc34)c(=O)n2CC1	MIC		SC5314	>100 µg/mL
Cc1ncc([N+](=O)[O-])n1CCn1c(-c2ccc([N+](=O)[O-])cc2)csc1=Nc1ccccc1	MIC			250 µg/mL
CC(N1CCN(c2ccc(-n3ncnn3)cc2)C1=O)C(O)(Cn1cncn1)c1ccc(F)cc1F	MIC		TIMM1756	0.004 µg/mL
Cn1cccc1C(Cc1ccc(Cl)cc1Cl)n1ccnc1	MIC			>300 µM
Cc1ncc([N+](=O)[O-])n1CCN1C(=O)/C(=C/c2ccc(CO)cc2)N=C1c1ccccc1	MIC			250 µg/mL
NC(=S)c1ccnc(SCc2ccc(Br)cc2)c1	MIC		44859	62.5 µM
CO[C@@H](n1cncn1)[C@@](O)(Cn1cncn1)c1ccccc1F	MIC			>100 µg/mL
Cc1cccc(CSc2cc(C(N)=S)ccn2)c1	MIC		44859	62.5 µM
Cc1ncc([N+](=O)[O-])n1CCN1C(=O)S/C(=C/c2ccc(Cl)cc2)C1=O	MIC			125 µg/mL
CO[C@@H](n1cccn1)[C@@](O)(Cn1cncn1)c1ccc(Cl)cc1	MIC			>100 µg/mL
C[C@H]1[C@H](O)[C@@H](C)/C=C/C=C/C=C/C=C/C=C/C=C/C=C/[C@H](O[C@@H]2O[C@H](C)[C@@H](O)[C@H](N)[C@@H]2O)C[C@@H]2O[C@](O)(C[C@@H](O)C[C@@H](O)CC[C@H](O)[C@@H](O)C[C@@H](O)CC(=O)O[C@H]1C)C[C@H](O)[C@H]2C(=O)O	MIC100	broth dilution	ATCC 10231	1 µg/mL
Cc1ccc(C(Cc2ccc(N)cc2)n2ccnc2)s1	MIC			37.5 µM
C[C@H](n1ccn(-c2ccc(-n3cccn3)cc2)c1=O)[C@@](O)(Cn1cncn1)c1ccc(F)cc1F	MIC		TA	0.004 µg/mL
Nc1scc2c1c(=O)oc1ccc3ccccc3c12	MIC	broth dilution	ATCC 2091	128 µg/mL
O=C(CN1CCCC1)N/N=C\C(=O)c1ccc(-c2ccccc2)cc1	MIC			>50 µg/mL
C[C@H](O)Cc1cc2c(O[C@H]3O[C@H](CO)[C@@H](O)[C@H]3O)ccc(O)c2c(=O)o1	MIC	turbidity	ATCC 10231	>128 µg/mL
C[C@H]1[C@H](O)[C@@H](C)/C=C/C=C/C=C/C=C/C=C/C=C/C=C/[C@H](O[C@@H]2O[C@H](C)[C@@H](O)[C@H](N)[C@@H]2O)C[C@@H]2O[C@](O)(C[C@@H](O)C[C@@H](O)CC[C@H](O)[C@@H](O)C[C@@H](O)CC(=O)O[C@H]1C)C[C@H](O)[C@H]2C(=O)O	MIC	broth dilution	ATCC 10231	0.125 µg/mL
CO[C@@H](n1cncn1)[C@](O)(Cn1cncn1)c1ccc(F)cc1F	MIC			>100 µg/mL
C=C1CO[C@H]2[C@@H](C)OC(OC[C@@]34C[C@H]5[C@H](C)CC[C@@H]5[C@@]5(C=O)C[C@@H]3C=C(C(C)C)[C@@]45C(=O)O)C[C@@H]12	MIC		Isolate CL-245 (fluconazole-resistant)	<0.01 µg/mL
NC(=S)c1ccnc(SCc2cccc(Cl)c2)c1	MIC		44859	62.5 µM
CCCCCOc1ccc(-c2ccc(-c3ccc(C(=O)N[C@H]4CCCNC(=O)[C@@H]5[C@H](N)CCN5C(=O)[C@H]([C@@H](C)O)NC(=O)[C@H](CCc5ccc(O)cc5)NC(=O)[C@@H]5C[C@@H](O)CN5C(=O)[C@H]([C@@H](C)O)NC4=O)cc3)cc2)cc1	MIC		ATCC 38247	0.1 µg/mL
O=C(CN1CCOCC1)N/N=C\C(=O)c1ccc(Sc2ccccc2)cc1	MIC			>50 µg/mL
CC(n1ncn(-c2ccc(Cn3nccn3)cc2)c1=O)C(O)(Cn1cncn1)c1ccc(F)cc1F	MIC		TA	0.03 µg/mL
CCC(C)n1ncn(-c2ccc(N3CCN(c4ccc(OC[C@H]5CO[C@](Cn6cncn6)(c6ccc(Cl)cc6Cl)O5)cc4)CC3)cc2)c1=O	MIC50		2453 strains	0.03 µg/mL
C=C1/C=C(\C)[C@H](CC)OC(=O)[C@H](C)C(=O)C(O)(CO)C/C(OC)=C/[C@@H](C)C1	MIC		CLY539	1 µg/mL
CCCCCOc1ccc(-c2ccc(-c3ccc(C(=O)N[C@H]4CCCNC(=O)[C@@H]5C[C@H](NC(=O)C[N+](C)(C)C)CN5C(=O)[C@H]([C@@H](C)O)NC(=O)[C@H](CCc5ccc(O)cc5)NC(=O)[C@@H]5C[C@@H](O)CN5C(=O)[C@H]([C@@H](C)O)NC4=O)cc3)cc2)cc1	MIC		ATCC 38247	6.25 µg/mL
O=C1NC(=O)[C@H](Cc2ccccc2)n2c1nc1ccccc1c2=O	MIC		SC5314	>100 µg/mL
Clc1ccc(CC(c2ccc(Cl)s2)n2ccnc2)cc1	MIC			37.5 µM
Cc1c(O)cccc1C(=O)N[C@@H](CSc1ccccc1)[C@H](O)CN1C[C@H]2CCCC[C@H]2C[C@H]1C(=O)NC(C)(C)C	MIC		90028	>64 µg/mL
Cc1ccc(NC(=S)NCCn2c([N+](=O)[O-])cnc2C)cc1	MIC			125 µg/mL
NC(=S)c1ccnc(SCc2ccc(F)cc2)c1	MIC		44859	62.5 µM
COc1cc(/C=C/c2ccc(O)cc2)cc(OC)c1	MIC80	broth dilution	01010	32 µg/mL
CCCCCOc1ccc(-c2ccc(-c3ccc(CN[C@H]4CCCNC(=O)[C@@H]5C[C@H](N)CN5C(=O)[C@H]([C@@H](C)O)NC(=O)[C@H](CCc5ccc(O)cc5)NC(=O)[C@@H]5C[C@@H](O)CN5C(=O)[C@H]([C@@H](C)O)NC4=O)cc3)cc2)cc1	MIC		ATCC 38247	0.2 µg/mL
NC(=S)c1ccnc(SCc2c(F)cccc2Cl)c1	MIC		44859	>500 µM
Cc1nc(-c2ccc(-n3cnn(C(C)C(O)(Cn4cncn4)c4ccc(F)cc4F)c3=O)cc2)co1	MIC		TA	0.004 µg/mL
CCCCCCCCOc1ccc(N2CCN(c3ccc(C(=O)N[C@H]4CCCNC(=O)[C@@H]5C[C@H](N)CN5C(=O)[C@H]([C@@H](C)O)NC(=O)[C@H](CCc5ccc(O)cc5)NC(=O)[C@@H]5C[C@@H](O)CN5C(=O)[C@H]([C@@H](C)O)NC4=O)cc3)CC2)cc1	MIC		ATCC 38247	0.2 µg/mL
O=C(CN1CCCCC1)N/N=C\C(=O)c1ccc(Sc2ccccc2)cc1	MIC			>50 µg/mL
CC(N1CCN(c2ccc(-n3cnnn3)cc2)C1=O)C(O)(Cn1cncn1)c1ccc(F)cc1F	MIC		TA	0.002 µg/mL
Cc1cc2c(O[C@H]3O[C@H](CO)[C@@H](O)[C@H]3O)ccc(O)c2c(=O)o1	MIC	turbidity	ATCC 32354	>128 µg/mL
COCCOCCOCCOCCOCCOCCNC(=O)[C@H]1[C@@H]2C[C@@H](O[C@@H]3O[C@H](C)[C@@H](O)[C@H](N)[C@@H]3O)/C=C/C=C/C=C/C=C/C=C/C=C/C=C/[C@H](C)[C@@H](O)[C@H](C)[C@H](C)OC(=O)C[C@H](O)C[C@H](O)[C@@H](O)CC[C@H](O)C[C@H](O)C[C@](O)(C[C@@H]1O)O2	MIC		3 strains	3.2–6.4 µg/mL
C=C(CC[C@@H](C)C1CCC2C3=C(CC[C@@]21C)[C@@]1(C)CC[C@H](O)CC1C(=O)O3)C(C)C	MIC	agar		1.9 µM
CO[C@@H](n1cncn1)[C@](O)(Cn1cncn1)c1ccc(Cl)cc1	MIC			>100 µg/mL
Clc1ccc(CC(c2cccs2)n2ccnc2)cc1	MIC			75 µM
CC(n1ccn(-c2ccc(-n3nccn3)cc2)c1=O)C(O)(Cn1cncn1)c1ccc(F)cc1F	MIC		TA	<0.008 µg/mL
CS[C@@H](n1cncn1)[C@@](O)(Cn1cncn1)c1ccc(F)cc1F	MIC			>100 µg/mL
CC(n1ncn(-c2ccc(-n3cncn3)cc2)c1=O)C(O)(Cn1cncn1)c1ccc(F)cc1F	MIC		TA	0.03 µg/mL
Nc1ccc(CC(c2ccc(Cl)s2)n2ccnc2)cc1	MIC			9.4 µM
Cc1ncc([N+](=O)[O-])n1CCn1c(-c2ccccc2)csc1=Nc1ccccc1	MIC			250 µg/mL
CS[C@@H](n1cncn1)[C@](O)(Cn1cncn1)c1ccc(F)cc1	MIC			>100 µg/mL

The last 3 rows once more:

smiles,measure,method,strain,result
Nc1ccc(CC(c2ccc(Cl)s2)n2ccnc2)cc1,MIC,,,9.4 µM
Cc1ncc([N+](=O)[O-])n1CCn1c(-c2ccccc2)csc1=Nc1ccccc1,MIC,,,250 µg/mL
CS[C@@H](n1cncn1)[C@](O)(Cn1cncn1)c1ccc(F)cc1,MIC,,,>100 µg/mL